Laboratory results published in patent publication US20240076299A1, “TUBERCULATIN ANALOGS AS ANTIVIRAL AGENTS” (priority 2020, published 2024).

Columns and labels:
[1] = test system: HIV; assay type: cell-based, HIV-1
[2] = test system: VSV; assay type: cell-based, vesicular stomatitis virus; settings: ratio CC50 / EC50
[3] = test system: AIV; assay type: cell-based, avian influenza virus (H5N1); settings: ratio CC50 / EC50

| Structure (SMILES) | increase of antiviral activity in comparison with unacetonized counterpart [1] [times] | SI VSV [2] | SI AIV [3] |
| --- | --- | --- | --- |
| COc1cc2c(O[C@H]3OC[C@@]4(CO)OC(C)(C)O[C@@H]34)c3c(c(-c4ccc5c(c4)OCO5)c2cc1OC)C(=O)OC3 [Compound 10] | ~12 | 266 | 536 |
| COc1cc2c(O[C@H]3OC[C@@]4(CO)OC(c5ccccc5)O[C@@H]34)c3c(c(-c4ccc5c(c4)OCO5)c2cc1OC)C(=O)OC3 (stereo partly shown) [Compound 18] |  | 85.9 | 295 |
| COc1cc2c(O[C@H]3OC[C@](O)(CO)[C@H]3O)c3c(c(-c4ccc5c(c4)OCO5)c2cc1OC)C(=O)OC3 [Compound 19] |  | 14.6 | 30.0 |
| COc1cc2c(O[C@@H]3OC[C@@]4(COC(C)=O)OC(c5ccccc5)O[C@@H]34)c3c(c(-c4ccc5c(c4)OCO5)c2cc1OC)C(=O)OC3 (stereo partly shown) [Compound 20] |  | 29.1 | 39.2 |
| COc1cc2c(O[C@H]3OC[C@@]4(COC(C)=O)OC(c5ccccc5)O[C@@H]34)c3c(c(-c4ccc5c(c4)OCO5)c2cc1OC)C(=O)OC3 (stereo partly shown) [Compound 21] |  | 7.8 | 14.9 |
| COc1cc2c(O[C@H]3OC[C@](O)(COC(C)=O)[C@H]3O)c3c(c(-c4ccc5c(c4)OCO5)c2cc1OC)C(=O)OC3 [Compound 23] |  | 127 | 528 |
| COc1cc2c(O[C@H]3OC[C@@]4(CN=[N+]=[N-])OC(C)(C)O[C@@H]34)c3c(c(-c4ccc5c(c4)OCO5)c2cc1OC)C(=O)OC3 [Compound 25] |  | 143 | 895 |
| COc1cc2c(O[C@H]3OC[C@@]4(CN)OC(C)(C)O[C@@H]34)c3c(c(-c4ccc5c(c4)OCO5)c2cc1OC)C(=O)OC3 [Compound 26] |  | 4.6 | 3.4 |
| COc1cc2c(O[C@H]3OC[C@@]4(COC(=O)c5ccccc5)OC(C)(C)O[C@@H]34)c3c(c(-c4ccc5c(c4)OCO5)c2cc1OC)C(=O)OC3 [Compound 27] |  | 18.2 | 22.4 |
| COc1cc2c(O[C@H]3OC[C@@]4(COC(=O)c5ccncc5)OC(C)(C)O[C@@H]34)c3c(c(-c4ccc5c(c4)OCO5)c2cc1OC)C(=O)OC3 [Compound 28] |  | 10.0 | 33.5 |
| COc1cc2c(O[C@H]3OC[C@@]4(COC(=O)c5cccnc5)OC(C)(C)O[C@@H]34)c3c(c(-c4ccc5c(c4)OCO5)c2cc1OC)C(=O)OC3 [Compound 29] |  | 24.3 | 55.8 |
| COc1cc2c(O)c3c(c(-c4ccc5c(c4)OCO5)c2cc1OC)C(=O)OC3 [Diphyllin (7), diphyllin, reference compound] |  | 176 | 842 |

For some of these results: No dose or concentration is given here for some results.
